A mixed list of measured activities; the numbers were collected in NIAID ChemDB.

Shared fields: growth or infection tests; species: Mycobacterium tuberculosis

MIC50, MIC90 and the like: level of inhibition, or share of isolates inhibited. a–b is a range or a potency band. Inhibition is in % at the dose shown (toxicity tests: loss of growth or viability). Rows are shuffled and stem from different studies. An empty or dashed field is not shown. ECn is the concentration giving n% inhibition of infection, replication or growth. MIC bound comes from a single tested concentration.

smiles	strain or isolate	mutations	read by	setting	endpoint	tested at	result
CC(C)N=c1cc2n(-c3ccc(Cl)cc3)c3ccccc3nc-2cc1Nc1ccc(Cl)cc1	9449/2007	MDR	broth dilution		MIC99		2 µM
Nc1nc(-c2ccc([N+](=O)[O-])cc2)cc(-c2cn(-c3ccccc3)nc2-c2ccc(F)cc2)n1	H37Rv		BACTEC / radiometric		EC90		>220 µM
CC1COc2c(N3CCN(C)CC3)c(F)cc3c(=O)c(C(=O)O)cn1c23	9449/2007	MDR	broth dilution		MIC99		8 µM
CCCCCCCCNCc1ccc(O)c(OC)c1	H37Ra		resazurin		EC50		144 µM
O=C1c2cc(Br)ccc2OP(=O)(c2ccccc2)N1c1ccc(C(F)(F)F)cc1	Praha 131			14 d	MIC		1 µM
Cc1ccn2c(C(=O)OCc3ccccc3)c(C)nc2c1	XDR-TB	Resistant to HREKO	broth dilution		MIC90		<0.01 µg/mL
O=C1c2cc(Cl)ccc2OP(=O)(c2ccccc2)N1c1ccc(C(F)(F)F)cc1	7357/1998			14 d	MIC		1 µM
CCn1cc(C(=O)O)c(=O)c2cc(F)c(N3CCNC(C)C3)c(F)c21	11 strains (drug-resistant)				MIC90		1.1 µg/mL
Nc1ccc(-c2cc(-c3cn(-c4ccccc4)nc3-c3ccc(F)cc3)[nH]c(=S)n2)cc1	H37Rv		BACTEC / radiometric		EC90		>228 µM
O=C(O)c1ccc(NNC(=O)N2CCN(c3nc(N4CCN(c5ccccc5)CC4)c4ccccc4n3)CC2)cc1	H37Rv		agar / visual reading		inhibition	100 µg/mL	90%
CCc1nc2ccc(Cl)cn2c1C(=O)NCc1ccc(N2CCC(c3ccc(OC(F)(F)F)cc3)CC2)cc1	N0072		turbidity		MIC50		0.0015 µM
c1ccc(Sc2nnc(N3CCN(c4nc(N5CCN(c6ccccc6)CC5)c5ccccc5n4)CC3)o2)cc1	H37Rv		BACTEC / fluorescence		inhibition	6.25 µg/mL	0%
CC[C@@H](CO)NCCN[C@@H](CC)CO	Praha 1	MDR	broth dilution		MIC99		32 µM
Cn1c(=O)c2c(c3ccccc31)Oc1oc3ccc4ccccc4c3c(=O)c1C2	H37Rv		BACTEC		MIC bound		>12.5 µg/mL
COc1cc(CNc2ccccc2B2OC(C)(C)C(C)(C)O2)ccc1O	H37Ra		resazurin		EC50		46.2 µM
CC(C)c1ccc(NC(=S)c2ccccc2)cc1	My 331/88				MIC		62.5 µM
O=NN1N=C(c2ccccc2O)CC1c1cn(-c2ccccc2)nc1-c1ccc(F)cc1	H37Rv		BACTEC / radiometric		EC90		>234 µM
CO[C@H]1/C=C/O[C@@]2(C)Oc3c(C)c(O)c4c(O)c(c(/C=N/N5CCN(C)CC5)c(O)c4c3C2=O)NC(=O)/C(C)=C\C=C\[C@H](C)[C@H](O)[C@@H](C)[C@@H](O)[C@@H](C)[C@H](OC(C)=O)[C@@H]1C			visual reading		MIC		0.1 µg/mL
NCCC[C@H](N)CC(=O)N[C@H]1CNC(=O)[C@H]([C@H]2C[C@H](O)NC(N)=N2)NC(=O)/C(=C/NC(N)=O)NC(=O)[C@H](CO)NC(=O)[C@H](CO)NC1=O	H37Rv				MIC		5 µg/mL
CC(=O)c1ccccc1Sc1nnc(N2CCN(c3nc(N4CCN(c5ccccc5)CC4)c4ccccc4n3)CC2)o1	H37Rv		agar / visual reading		inhibition	200 µg/mL	85%
O=C(Nc1cccc(F)c1)c1ccc2cc(O)ccc2c1	H37Ra ATCC 25177		broth dilution / visual reading		MIC		107 µM
O=C(Nc1ccc(Cl)cc1)c1cc(Cl)ccc1OP(=O)(Oc1ccccc1)c1ccccc1	My 331/88			14 d	MIC		4 µM
Cc1cc(C)[n+]2[nH]c(C(=O)NS(=O)(=O)c3ccccc3)nc2n1			broth dilution		MIC		>32 µg/mL
CN(C)CCCN1c2ccccc2Sc2ccc(Cl)cc21	H37Rv				MIC		16 µg/mL
Nc1nc(-c2ccc(Cl)cc2)cc(-c2cn(-c3ccccc3)nc2-c2ccc(F)cc2)n1	H37Rv		BACTEC / radiometric		EC90		>226.3 µM
c1ccc2c(c1)Sc1ccccc1N2CC1CC2CCC23CCN13	H37Rv				MIC		8 µg/mL
O=C(Nc1ccc(Cl)cc1)c1cc(Cl)ccc1OP(=O)(OCc1ccccc1)OCc1ccccc1	My 331/88			7 d	MIC		16 µM
Cc1ccccc1Sc1nnc(N2CCN(c3nc(N4CCN(c5ccccc5)CC4)c4ccccc4n3)CC2)o1	H37Rv		agar / visual reading		inhibition	6.25 µg/mL	99%
Cc1ccc(NC(=O)CN2CCOCC2)cc1Cl	H37Rv		BACTEC		MIC bound		>12.5 µg/mL
Cn1ccnc1CSc1nc(N)c2c3c(sc2n1)CC(C(C)(C)C)CC3	H37Rv		MTT / visual reading		MIC		25 µg/mL
NCCCC(N)CC(=O)NCC1NC(=O)C(CO)NC(=O)C(NC(=O)CC(N)CCCN)CNC(=O)C(C2CCN=C(N)N2)NC(=O)/C(=C/NC(N)=O)NC1=O	Isolate VIM-S				MIC		5 µg/mL
C[C@H]1c2ccoc2C[C@H]2[C@H]1[C@@H](O)[C@@H](OC(=O)c1ccccc1)[C@@]1(O)C(C)(C)CCC[C@]21C	H37Ra				MIC		25 µg/mL
CC1=C2C(=CO[C@H](C)[C@H]2C)C(=O)C(C(=O)O)=C1O	49				inhibition	400 µg/mL	77%
NCC[C@H](O)C(=O)N[C@@H]1C[C@H](N)[C@@H](O[C@H]2O[C@H](CN)[C@@H](O)[C@H](O)[C@H]2O)[C@H](O)[C@H]1O[C@H]1O[C@H](CO)[C@@H](O)[C@H](N)[C@H]1O	8666/2010	MDR	broth dilution		MIC99		0.5 µM
CCC(C)[C@@H](NC)C(=O)N[C@@H](CC(C)C)C(=O)N1CC[C@@H]2Oc3ccc(OC)c(c3)/C=C\NC(=O)[C@@H]3CCCN3C(=O)[C@H]21	H37Ra				MIC		>200 µg/mL
CN[C@@H]1[C@H](O[C@H]2[C@H](O[C@H]3[C@H](O)[C@@H](O)[C@H](N=C(N)N)[C@@H](O)[C@@H]3N=C(N)N)O[C@@H](C)[C@]2(O)C=O)O[C@@H](CO)[C@H](O)[C@H]1O	8666/2010	MDR	broth dilution		MIC99		>32 µM
Cc1ccn2c(C(=O)NCc3ccc(C(=O)N4CCN(C5NC(=O)c6cc(C(F)(F)F)cc([N+](=O)[O-])c6S5)CC4)cc3)c(C)nc2c1	H37Rv		resazurin		MIC		>10 µM
CC(C)(C)C1CCc2c(sc3nc(SCC(N)=O)nc(N)c23)C1	H37Rv		MTT / visual reading		MIC		12 µg/mL
CN[C@@H]1[C@@H](O)[C@@H](O[C@@H]2[C@@H](O)[C@H](O[C@H]3O[C@H](CN)CC[C@H]3N)[C@@H](N)C[C@H]2N)OC[C@]1(C)O	Praha 4	MDR	broth dilution		MIC99		0.5 µM
NC(=O)c1ccc(CN(C2CC2)S(=O)(=O)c2ccccc2F)cc1	Clinical isolate	Isoniazid-resistant	resazurin / fluorescence		MIC		5 µM
COc1c(N2CC3CCCNC3C2)c(F)cc2c(=O)c(C(=O)O)cn(C3CC3)c12			visual reading		MIC		0.78 µg/mL
COc1cccc(C(=S)Nc2ccc(C(C)C)cc2)c1	My 331/88				MIC		62.5 µM
O=C(OCC(F)(F)F)c1cnccn1	Clinical isolate LFL				MIC		50 µg/mL
COc1c(-c2ccc3c(c2)OCO3)oc2c3c(ccc2c1=O)OC(C)(C)C=C3	H37Ra				MIC		100 µg/mL
O=C(O)c1ccc(Sc2nnc(N3CCN(c4nc(N5CCN(c6ccccc6)CC5)c5ccccc5n4)CC3)o2)cc1	H37Rv		BACTEC / fluorescence		inhibition	6.25 µg/mL	0%
Cc1cc(CSc2nc(N)c3c4c(sc3n2)CC(C(C)(C)C)CC4)no1	H37Rv		MTT / visual reading		MIC		3.1 µg/mL
CCCCc1ccc(NC(=S)c2ccccc2)cc1	My 331/88				MIC		32 µM
CC(CN1c2ccccc2Sc2ccccc21)[N+](C)(C)C	H37Rv				MIC		128 µg/mL
N#Cc1ccc(Sc2nnc(N3CCN(c4nc(N5CCN(c6ccccc6)CC5)c5ccccc5n4)CC3)o2)cc1	H37Rv		BACTEC / fluorescence		inhibition	6.25 µg/mL	0%
Cc1ccc2c(c1)OC1c3ccc(O)cc3OCC21	H37Ra				MIC		100 µg/mL
CC(=O)c1ccccc1NNC(=O)N1CCN(c2nc(N3CCN(c4ccccc4)CC3)c3ccccc3n2)CC1	H37Rv		BACTEC / fluorescence		MIC		>6.25 µg/mL
CO[C@H]1/C=C/O[C@@]2(C)Oc3c(C)c(O)c4c(O)c(c5c(c4c3C2=O)NC2(CCN(CC(C)C)CC2)N=5)=NC(=O)/C(C)=C\C=C\[C@H](C)[C@H](O)[C@@H](C)[C@@H](O)[C@@H](C)[C@H](OC(C)=O)[C@@H]1C	Isolate 880902 rifampicin-resistant				MIC		16 µg/mL
Cc1cccc(C(=S)Nc2ccc(C(C)C)cc2)c1	My 331/88				MIC		62.5 µM
O=C(NNc1ccccc1)N1CCN(c2nc(N3CCN(c4ccccc4)CC3)c3ccccc3n2)CC1	H37Rv		BACTEC / fluorescence		MIC		>6.25 µg/mL
NNC(=O)c1ccncc1	H37Ra				MIC		0.04–0.09 µg/mL
CC(C)NCCNC(C)C	H37Rv				MIC		8 µg/mL
COc1cc(Cc2cnc(N)nc2N)cc(OC)c1OC	ATCC 27294		BACTEC		inhibition	76 µg/mL	22%
COc1cc(CNc2cccc(B3OC(C)(C)C(C)(C)O3)c2)ccc1O	H37Ra		resazurin		inhibition	200 µM	<50%
COc1ccc(-c2coc3c(OC)c(OCC=C(C)C)ccc3c2=O)cc1	H37Ra				MIC		100 µg/mL
O=C(Nc1ccc(C(F)(F)F)cc1)c1cc(Cl)ccc1OP(=O)(c1ccccc1)c1ccccc1	Praha 1			21 d	MIC		1 µM
CCC(C)[C@H](C(=O)N[C@H](C(=O)N1CC[C@@H]2Oc3ccc(OC)c(c3)/C=C\NC(=O)[C@@H]3CCCN3C(=O)[C@H]21)C(C)C)N(C)C	H37Ra				MIC		200 µg/mL

The last 4 rows once more:

smiles	strain or isolate	mutations	read by	setting	endpoint	tested at	result
COc1cc(CNc2cccc(B3OC(C)(C)C(C)(C)O3)c2)ccc1O	H37Ra		resazurin		inhibition	200 µM	<50%
COc1ccc(-c2coc3c(OC)c(OCC=C(C)C)ccc3c2=O)cc1	H37Ra				MIC		100 µg/mL
O=C(Nc1ccc(C(F)(F)F)cc1)c1cc(Cl)ccc1OP(=O)(c1ccccc1)c1ccccc1	Praha 1			21 d	MIC		1 µM
CCC(C)[C@H](C(=O)N[C@H](C(=O)N1CC[C@@H]2Oc3ccc(OC)c(c3)/C=C\NC(=O)[C@@H]3CCCN3C(=O)[C@H]21)C(C)C)N(C)C	H37Ra				MIC		200 µg/mL